Assay results: patent publication US10221152B2 (priority 2013, dated 2019)
Where two headings read alike, the source gives them in different places.

How the values were obtained:
[1] = system: H1N1 T.R. (Tamiflu-resistant variant of H1N1 viral strain); assay: Inhibitory concentration against Tamiflu-resistant variant of H1N1 (H1N1 T.R.), MTT assay; assay type: cell-based, Influenza A virus
[2] = system: Influenza A/WSN/33 (H1N1); conditions: virus strain used for the ratio not stated

COc1c(C)c2c(c(O)c1C/C=C(\C)CCC(=O)OCCN1CCOCC1)C(=O)OC2
effects against drug-resistant influenza viral strains ([1]; according to Table 5): good effects | minimal inhibitory concentrations against the drug-resistant virus strains compared to Ribavirin ([1]; compared to the Ribavirin control group (Table 4)): better minimal inhibitory concentrations | S.I. (Selection Index: CC50/EC50) [2]: >2000 | S.I. (Selection Index: CC50/EC50) ([2]; hydrochloride): >4000
